PubChem BioAssay AID504761, Drosophila RNAi Screening Center | 2011
The deposit covers about 22,000 reagents; shown is an unselected part of those with a known target gene and a result. In the full data, 116 (0.52%) got an active call. 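Calls depend on retest data that are not deposited; infection was ranked per plate without normalising between plates; the unit of the infection score is not given.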 The numbers tell different reagents against one gene apart. Not all columns of the deposit are shown. Not given: the amount of reagent, the time to read-out.

Assay: 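Insect host genes that dengue virus relies on to spread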 (primary screen)
Cell system: D.Mel-2 cells from Drosophila
Knock-down reagent: long dsRNA against Drosophila genes
Conditions: infection with dengue virus type 2; dose and infection time not stated
Measurement: 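Cells stained for dengue envelope protein and imaged; percent of infected cells per well on duplicate plates, ranked by infection, with stained nuclei counted for cell number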
Direction: infection score: higher = more virus-infected cells
Rule for the call: 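Low infection ranks in the two replicates (chance level up to 0.065) followed by a retest with a 1.5-fold or larger significant decrease, p below 0.05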
Meaning of the calls: active = confirmed: knock-down lowers infection; inactive = not picked or not confirmed

infection score, replicate 1 | infection score, replicate 2 | outcome | predicted target | dsRNA no.
24.8 | 30.9 | inactive | Oatp58Db (GeneID 37544) | 1
12.6 | 4.77 | inactive | Oatp58Db (GeneID 37544) | 2
19.4 | 20.7 | inactive | Phs (GeneID 39697) | 1
26.5 | 8.35 | inactive | Phs (GeneID 39697) | 2
0.62 | 2.86 | inactive | CG15345 (retired record) (GeneID 50402) | 1
12.7 | 6.69 | inactive | CG15345 (retired record) (GeneID 50402) | 2
3.99 | 7.39 | inactive | crok (GeneID 34646) | 1
3.16 | 13.2 | inactive | crok (GeneID 34646) | 2
12.1 | 6.47 | inactive | crok (GeneID 34646) | 3
11.3 | 9.39 | inactive | CG10939 (GeneID 44155) | 1
3.35 | 15.5 | inactive | CG10939 (GeneID 44155) | 2
3.9 | 11.5 | inactive | kto (GeneID 44830) | 1
8.25 | 15.6 | inactive | CG33332 (GeneID 2768669) | 1
– | 2.06 | inactive | CG33332 (GeneID 2768669) | 2
12.4 | 4.5 | inactive | Kdm4B (GeneID 318918) | 1
2.38 | 3.83 | inactive | Kdm4B (GeneID 318918) | 2
– | 11.9 | inactive | CG5618 (GeneID 40241) | 1
18.7 | 7.28 | inactive | CG5618 (GeneID 40241) | 2
3.13 | 7.89 | inactive | Dredd (GeneID 31011) | 1
7.04 | 2.71 | inactive | Lk6 (GeneID 44672) | 1
19.1 | 12.8 | inactive | Lk6 (GeneID 44672) | 2
8.94 | 5.84 | inactive | Lk6 (GeneID 44672) | 3
13.2 | 7.21 | inactive | Lcp3 (GeneID 35819) | 1
3.1 | 8.7 | inactive | Lcp3 (GeneID 35819) | 2
2.35 | 5.5 | inactive | Mcm6 (GeneID 31603) | 1
7.52 | 6.64 | inactive | Mcm6 (GeneID 31603) | 2
3.2 | 3.14 | inactive | RluA-1 (GeneID 34438) | 1
2.05 | – | inactive | RluA-1 (GeneID 34438) | 2
0.81 | 0.25 | inactive | Edg91 (GeneID 42117) | 1
2.1 | 2.95 | inactive | LanB1 (GeneID 34068) | 1
11.4 | 7.3 | inactive | LanB1 (GeneID 34068) | 2
1.25 | 3.46 | inactive | CG30022 (GeneID 36233) | 1
1.23 | 2.19 | inactive | CG15212 (GeneID 50315) | 1
5.52 | 6.98 | inactive | Oat (GeneID 40145) | 1
16.1 | 8.98 | inactive | Fntb (GeneID 41989) | 1
19.5 | 23.5 | inactive | Fntb (GeneID 41989) | 2
2.01 | 7.66 | inactive | CG3847 (GeneID 31577) | 1
2.66 | 4.87 | inactive | CG3847 (GeneID 31577) | 2
6.66 | 5.23 | inactive | CG3847 (GeneID 31577) | 3
6.08 | 9.53 | inactive | Spn88Eb (GeneID 41829) | 1
6.91 | 6 | inactive | CG3719 (GeneID 44736) | 1
22.1 | 22.2 | inactive | Cec2 (GeneID 3772199) | 1
5.95 | 20.1 | inactive | Cec2 (GeneID 3772199) | 2
1.08 | 5.36 | inactive | Scr (GeneID 40833) | 1
11.7 | 14.8 | inactive | Scr (GeneID 40833) | 2
1.44 | 0.54 | inactive | TotX (GeneID 117460) | 1
– | 12.5 | inactive | TotX (GeneID 117460) | 2
24 | 29.2 | inactive | Cyp6a17 (GeneID 45556) | 1
0.97 | 3.34 | inactive | CG8219 (GeneID 38722) | 1
7.89 | 20.4 | inactive | CG8219 (GeneID 38722) | 2
16.9 | 6.14 | inactive | Gdi (GeneID 34264) | 1
8.2 | 0.59 | inactive | Gdi (GeneID 34264) | 2
2.9 | 7.07 | inactive | Gr58b (GeneID 37502) | 1
19.8 | 9.68 | inactive | CG13545 (GeneID 37675) | 1
19 | 23.1 | inactive | CG13545 (GeneID 37675) | 2
25.4 | 9.69 | inactive | nau (GeneID 42799) | 1
3.46 | 1.14 | inactive | Snoo (GeneID 5740414) | 1
4.81 | 2.05 | inactive | Snoo (GeneID 5740414) | 2
6.89 | 8.09 | inactive | Sgf11 (GeneID 40035) | 1
0.59 | 1.37 | inactive | Mp (GeneID 38769) | 1
3.54 | 2.24 | inactive | Mp (GeneID 38769) | 2
2.77 | 5.51 | inactive | Mp (GeneID 38769) | 3
10.4 | 2.29 | inactive | Ephrin (GeneID 43799) | 1
3.9 | 2.62 | inactive | CG30197 (GeneID 246513) | 1
5.5 | 4.38 | inactive | alpha-Est4 (GeneID 40906) | 1
13.3 | 8.38 | inactive | alpha-Est4 (GeneID 40906) | 2
20.2 | 3.32 | inactive | Mst84Dc (GeneID 40887) | 1
1.26 | 12 | inactive | CG3164 (GeneID 33171) | 1
15.6 | 15.9 | inactive | CG9297 (GeneID 41688) | 1
6.3 | 7.44 | inactive | CG9297 (GeneID 41688) | 2
23.2 | 6.66 | inactive | para (GeneID 32619) | 1
10.1 | 15.8 | inactive | upd3 (GeneID 3346149) | 1
22 | 19.4 | inactive | upd3 (GeneID 3346149) | 2
3.55 | 2.18 | inactive | upd3 (GeneID 3346149) | 3

Quoted from the listing for reference:
infection score, replicate 1 | infection score, replicate 2 | outcome | predicted target | dsRNA no.
10.4 | 2.29 | inactive | Ephrin (GeneID 43799) | 1
3.9 | 2.62 | inactive | CG30197 (GeneID 246513) | 1
5.5 | 4.38 | inactive | alpha-Est4 (GeneID 40906) | 1
13.3 | 8.38 | inactive | alpha-Est4 (GeneID 40906) | 2
20.2 | 3.32 | inactive | Mst84Dc (GeneID 40887) | 1
1.26 | 12 | inactive | CG3164 (GeneID 33171) | 1
15.6 | 15.9 | inactive | CG9297 (GeneID 41688) | 1
